Results on two substances are retold here after patent US20230265069A1, “Small Molecule Inhibitors That Block the Budding of Enveloped Viruses” (priority 2020, published 2023).

pEC50: −log10 of the molar value.

For one experiment, the system named is HIV-1. The conditions noted are these: read-out: EC50, release of HIV-1 from 293T cells, p24 in media.
Another experiment relates to HSV-2. Description: HSV-2 release from infected Vero cells, plaque assay. The conditions noted are these: 24 hours after infection.

What is called pEC50 is −log10 of the EC50, conventionally taken in molar units. Take Ilaprazole: in the experiment with HIV-1, the pEC50 was at least 6.00. Turning to Tenatoprazole, in the experiment with HSV-2, the “Drop of HSV-2 in released infectious virus” value is given as 4-5 log.
